From patent US20040242870A1, “Antiviral methods and compounds” (priority 2000, published 2004)

What follows are compounds tested on HIV-1 strain RoJo (assay: PBMC time-of-addition assay (RT in cell-free supernatant at 6 days)). Settings: −4 h pre (relative to infection).
Assay type: cell-based
Method: Peripheral blood monocular cells (PBMCs) were obtained from normal hepatitis and HIV-1 negative donors by ficoll hypaque gradient separation. The mononuclear cells were washed to remove residual separation media, counted, viability determined and resuspended in RPMI 1640 medium supplemented with 15 % FBS (heat inactivated), 2 mM L-glutamine, 100 U/mL penicillin, 100 μg/mL streptomycin, and 10 μg/mL gentamycin with 2 μg/mL phytohemagluttin (PHA) at 1×10^6 cells/mL. The cells were cultured for 48 to 72 h at 37° C., 5% CO2. Following incubation, cells were collected by centrifugation, washed and resuspended in RPMI 1640 supplemented with 15% FBS (heat inactivated), 2 mM L-glutamine, 100 U/mL penicillin, 100 μg/mL streptomycin, and 10 μg/mL gentamycin with 20 U/mL recombinant IL-2 (R & D Systems, Minneapolis, Minn.). IL-2 was included in the culture medium to maintain the cell division initiated by the PHA mitogenic stimulation, and promote optimal growing conditions for the PBMCs. The cultures were then maintained until use by ½ culture volume change with fresh IL-2 containing medium every 3 days.
Human peripheral blood mononuclear cells from a minimum of 2 donors, that have been blasted with PHA and IL-2, were counted, viability determined by Trypan Blue dye exclusion and mixed in equal ratios. Pooled donors were used to minimize the variability observed between individual donors which results from quantitative and qualitative differences in HIV infection and overall response to the PHA and IL-2 of primary lymphocyte populations. The cells were resuspended at 1×10^6 cells/mL in RPMI 1640 without phenol red supplemented with 15% Fetal Bovine Serum (heat inactivated), 2 mM L-glutamine, 100 U/mL penicillin, 100 μg/mL streptomycin, 10 μg/Ln gentamycin and IL-2 (20 U/mL, R&D Systems, Minneapolis, Minn.). Fifty microliters of cells were then distributed to the inner 60 wells of a 96 well round bottom microtiter culture plate in a standard format developed by the Infectious Disease Research department of Southern Research Institute. Each plate contains cell control wells (cells only), virus control wells (cells plus virus), and experimental wells (drug plus cells plus virus). Alternatively, cells were cultured in T25 cm^2 or T75 cm^2 tissue culture flasks at a starting density of 1×10^6 cells per ml. Serially diluted compounds were added to the microtiter plate or tissue culture flask followed by the appropriate pre-titered strain of HIV-1. For virus replication inhibition experiments the HIV-1 strain RoJo was used. […] Culture were also examined microscopically, any abnormalities noted, and in the case of tissue culture flasks cell counts and viability determined by Trypan Blue Dye exclusion. […]
Compound Cc1cn([C@H]2C[C@H](N=[N+]=[N-])[C@@H](CO)O2)c(=O)[nH]c1=O [AZT] has a TI of over 5000.
CC(C)=CCCC1(C)CCc2c(O)cc(C(C)(C)CCCC(C)C)cc2O1 (stereo not shown) [IG-08, 3,4-Dihydro-2-methyl-2-(4-methyl-3-pentenyl)-7-(1,1,5-trimethylhexyl)-2H-1-benzopyran-5-ol] gave a TI of over 16.
For C=C(C)[C@@H]1CCC(C)=C[C@H]1c1c(O)cc(CCCCC)cc1O [Cannabidiol, reference compound], the TI was over 8.3.
COc1cc(C(C)(C)CCCC(C)C)cc(OC)c1OC [IG-07, 1-(1,1,5Trimethylhexyl)-3,4,5-trimethoxybenzene] gave a TI of over 2.5.
